A mixed list of measured activities; the numbers were collected in NIAID ChemDB.

Shared fields: whole-cell or culture tests; species: HIV-1; cells: MT-4; endpoint: EC50

Lines come from different laboratories, so protocols vary. ECn: concentration that inhibits the pathogen or its effect by n%. An empty or dashed field is not shown.

compound | strain or isolate | mutations | method | result
Cc1cn([C@H]2C[C@H](N=[N+]=[N-])[C@@H](CO)O2)c(=O)[nH]c1=O | NDR500 |  | cytopathic effect / trypan blue | 0.003 µM
CC(C)c1nc(CN(C)C(=O)N[C@H](C(=O)N[C@@H](Cc2ccccc2)C[C@H](O)[C@H](Cc2ccccc2)NC(=O)OCc2cncs2)C(C)C)cs1 | NL4-3 | PR-N88D | p24 | <0.01 µM
Cc1cc(C#Cc2ccc(C(=O)O)cc2)cc(C)c1Oc1ccnc(Nc2ccc(C#N)cc2)n1 | IIIB | F227L + V106A | MTT | 0.296 µM
C#Cc1ccc(Nc2nccc(Oc3c(C)cc(-c4cn(Cc5cccc([N+](=O)[O-])c5)nn4)cc3C)n2)cc1 | IIIB | E138K | MTT | 0.51 µM
O=C1N(Cc2ccc(CO)cc2)[C@H](COc2ccccc2)[C@H](O)[C@@H](O)[C@@H](COc2ccccc2)N1Cc1ccc(CO)cc1 | IIIB | PR-L10F I84V | cytopathic effect / XTT | 2.22 µM
Cc1cc(C#Cc2ccccc2)cc(C)c1Oc1ccnc(NC2CCN(Cc3ccc(S(N)(=O)=O)cc3)CC2)n1 | IIIB | F227L + V106A | MTT | 0.182 µM
C#Cc1ccc(Nc2nccc(Oc3c(C)cc(-c4cn(-c5ccc(C(=O)OC)cc5)nn4)cc3C)n2)cc1 | IIIB | Y181C | MTT | 0.34 µM
Cc1cn([C@H]2C[C@H](N=[N+]=[N-])[C@@H](CO)O2)c(=O)[nH]c1=O | IIIB | Y188L | MTT | 0.004 µM
C#Cc1ccc(Nc2nccc(Oc3c(C)cc(-c4cn(Cc5ccccc5[N+](=O)[O-])nn4)cc3C)n2)cc1 | IIIB | F227L and V106A | MTT | >7.22 µM
CC(C)CN(C[C@@H](O)[C@H](Cc1ccccc1)NC(=O)[C@H](CC(N)=O)NC(=O)c1ccc2ccccc2n1)C(=O)NC(C)(C)C | NL4-3 | PR-V82T | p24 | <0.1 µM
C#Cc1ccc(Nc2nccc(Oc3c(C)cc(-c4cn(-c5cccc(C(=O)OC)c5)nn4)cc3C)n2)cc1 | RES056 |  | MTT | 45.24 µM
CC(C)=CCN1c2cc(Cl)cc3[nH]c(=S)n(c23)C[C@@H]1C |  | RT-M41L T215Y K101E |  | <1.5 µM
Cc1cc(C#Cc2cccc(N)c2)cc(C)c1Oc1ccnc(NC2CCN(Cc3ccc(S(N)(=O)=O)cc3)CC2)n1 | IIIB | F227L + V106A | MTT | 0.03 µM
C#Cc1ccc(Nc2nccc(Oc3c(C)cc(-c4cn(CC(=O)OC)nn4)cc3C)n2)cc1 | IIIB | F227L and V106A | MTT | >10.35 µM
Cc1ccc(/C=C/c2cc(C)c(Oc3ccnc(Nc4ccc(C#N)cc4)n3)c(C)c2)cc1 | IIIB | RES056 | MTT | >8.51 µM
O=C1N(Cc2ccc(CO)cc2)[C@H](Cc2ccccc2)[C@H](O)[C@@H](O)[C@@H](Cc2ccccc2)N1Cc1ccc(CO)cc1 | NL4-3 | PR-L10R M46I L63P | p24 | <0.2 µM
C#Cc1ccc(Nc2nccc(Oc3c(C)cc(-c4cn(CCCC(=O)OC)nn4)cc3C)n2)cc1 | IIIB | K103N | MTT | 0.79 µM
Cc1cc(C#Cc2cccc(N)c2)cc(C)c1Oc1ccnc(NC2CCN(c3cccc(C(N)=O)c3)CC2)n1 | IIIB | K103N | MTT | 0.029 µM

The last 2 rows once more:

compound | strain or isolate | mutations | method | result
C#Cc1ccc(Nc2nccc(Oc3c(C)cc(-c4cn(CCCC(=O)OC)nn4)cc3C)n2)cc1 | IIIB | K103N | MTT | 0.79 µM
Cc1cc(C#Cc2cccc(N)c2)cc(C)c1Oc1ccnc(NC2CCN(c3cccc(C(N)=O)c3)CC2)n1 | IIIB | K103N | MTT | 0.029 µM